Laboratory results from ChEMBL document CHEMBL2163218, “Design, synthesis, and biological and structural evaluations of novel HIV-1 protease inhibitors to combat drug resistance” (J Med Chem, 2012).

What follows are compounds tested against Protease (Human immunodeficiency virus 1, UniProt Q9YQ12) (assay: Inhibition of wild type HIV1 protease by FRET assay).
`CC[C@H](C)CN(C[C@@H](O)[C@H](Cc1ccccc1)NC(=O)O[C@H](C)CCC(C)=O)S(=O)(=O)c1ccc2ncsc2c1` was tested, and the Ki was 0.303 nM. Compound `CC[C@H](C)CN(C[C@@H](O)[C@H](Cc1ccccc1)NC(=O)OCCNC(=O)OC(C)(C)C)S(=O)(=O)c1ccc2ncsc2c1` has a Ki of 0.23 nM. `CC[C@H](C)CN(C[C@@H](O)[C@H](Cc1ccccc1)NC(=O)O[C@@H]1CCOC1=O)S(=O)(=O)c1ccc2ncsc2c1` showed a Ki of 121 nM.
